Measured values published in article PMC11847361, “Design and screening of novel molecular compounds targeting lactate dehydrogenase of Babesia microti” (Parasites & Vectors, 2025).

System: Vero cells
Assay type: cell-based
Conditions: Vero CC50 versus B. microti IC50
Description: The mycoplasma-free Vero cell line (ATCC-CCL-81, immortalized cells) was cryopreserved in liquid nitrogen with DMSO at the National Key Laboratory of Agricultural Microbiology, Huazhong Agricultural University, China. The cytotoxicity of compounds TA and TB was assessed in Vero cells using the CCK-8 assay (Vazyme). Briefly, Vero cells (100 µL, 10,000 cells/well) were cultured in Dulbecco’s modified Eagle medium (DMEM) supplemented with 10% fetal bovine serum (FBS) and 100 U/mL penicillin–streptomycin at 37 ℃ with 5% CO2 for 24 h. The cells were then treated with varying concentrations of TA (2000, 1000, 500, 250, and 125 μM) or TB (800, 400, 200, 100, and 50 μM) for 72 h. After the treatment period, the medium containing TA and TB was replaced with fresh medium. Subsequently, 10 µL of CCK-8 solution was added to each well, and the plate was incubated for an additional 3 h. Absorbance was measured at 450 nm using a multifunctional enzyme marker (Envision, PE, USA). Stock solutions of TA and TB were prepared at a concentration of 100 mM in absolute ethanol. Doxorubicin hydrochloride at 40 µM served as the positive control, while 2% absolute ethanol served as the negative control. The concentration required to achieve 50% cytotoxicity (CC50) values were calculated using GraphPad Prism 8, and all cytotoxicity assays were performed in triplicate.

In the case of O=C(O)c1ccccc1Cc1ccc2ccc(O)cc2c1 [TA], the “SI (selection index)” value was 8.5.
For O=C(O)c1cccc(-c2ccc3ccc(O)cc3c2)c1 [TB], the “SI (selection index)” value was 3.9.
